Results of unrelated studies side by side (data: NIAID ChemDB).

Common to all: tests in culture; species: Measles virus; read-out: EC50

ECn is the concentration giving n% inhibition of infection, replication or growth.

smiles | strain or isolate | cells | read by | result
CCCc1cc(=O)oc2c3c(c4c(c12)OC(C)(C)[C@H](O)[C@@H]4O)O[C@H](C)[C@@H](C)[C@@H]3O | BIL | CV-1 | cytopathic effect | 0.9 µg/mL
O=C(O)c1ccccc1/C=N/n1cc(C(=O)O)c2ccccc2c1=O | Edmonston | HEP-2/L-929/VERO | plaque count | >600 µM
CCCc1cc(=O)oc2cc(OC(=O)CC)c3c(c12)OC(C)(C)C=C3 | Chicago-1 | CV-1 | virus yield | <2 µg/mL
CSc1nsc(-c2ccc(OCCCCOc3ccccc3)cc2)c1C#N | - | HEP-2/L-929/VERO | plaque count | 0.5 µM
CSc1nsc(-c2ccccc2Cl)c1C#N | Edmonston | HEP-2 | plaque count | >5 µM
Nc1ncnc2c1ncn2[C@@H]1C[C@H](CO)[C@@H](O)[C@H]1O | - | VERO | cytopathic effect | 2 µg/mL
CC(C)CS[C@@H]1C[C@H](n2cnc3c(N)ncnc32)[C@@H](O)[C@H]1O | DAVIS | HEL | cytopathic effect | >100 µg/mL
CSc1nsc(-c2ccc(OCCOc3ccc([N+](=O)[O-])cc3)cc2)c1C#N | - | HEP-2/L-929/VERO | plaque count | >1 µM
Cc1cc(NCCCCCCCCNc2cc(C)nc3cc(N(C)C)ccc23)c2ccc(N(C)C)cc2n1 | Sugiyama | VERO | cytopathic effect | >500 µg/mL
CCOC(=O)c1ccc(OCCCCOc2ccc(-c3snc(SC)c3C#N)cc2)cc1 | - | HEP-2/L-929/VERO | plaque count | >2 µM
N#Cc1cc(C#N)c2[nH]c3ccccc3n2c1=O | Sugiyama | VERO | plaque count | 6.4 µg/mL
CCOC(=O)c1ccc(OC(=O)CCCCCN=C(N)N)cc1.COS(=O)(=O)O | Sugiyama | VERO | cytopathic effect | >150 µg/mL
COc1ncnc2c1ncn2[C@@H]1O[C@H](CO)[C@@H](O)[C@@H]1O | - | - | cytopathic effect | >100 µM
CCCc1cc(=O)oc2cc(OS(=O)(=O)c3ccc(C)cc3)cc(OS(=O)(=O)c3ccc(C)cc3)c12 | NS2 | CV-1 | cytopathic effect | 1 µg/mL
O=C(NC1CC1)c1cc2c(s1)-c1ccccc1N(C(=O)c1ccc(NC(=O)c3ccccc3-c3ccccc3)cc1)CC2 | Sugiyama | HeLa | plaque count | >100 µM
CC(C)CS[C@@H]1C[C@H](n2cnc3c(N)ncnc32)[C@@H](O)[C@H]1O | - | CV-1 | neutral red | >100 µg/mL
CSc1nsc(-c2ccc(OCCCCOc3ccc([N+](=O)[O-])cc3)cc2)c1C#N | - | HEP-2/L-929/VERO | plaque count | >0.5 µM
Nc1ncnc2c1ncn2C1CC(CO)[C@@H](O)[C@H]1O | - | VERO | cytopathic effect | 3 µg/mL
CSc1nsc(-c2ccc(OCCCOc3ccccc3)cc2)c1C#N | - | HEP-2/L-929/VERO | plaque count | 5 µM
CCCc1cc(=O)oc2cc(OC(=O)C(C)(C)C)c3c(c12)OC(C)(C)C=C3 | Chicago-1 | CV-1 | cytopathic effect | 0.6 µg/mL
Nc1nc(=O)c2nc(-c3ccccc3)n([C@@H]3O[C@H](CO)[C@@H](O)[C@H]3O)c2c(=O)[nH]1 | - | CV-1 | neutral red | 0.5 µM
COc1ccc(/C=N/N=C(/N)NO)c(OC)c1OC.Cc1ccc(S(=O)(=O)O)cc1 | - | VERO | plaque count | >50 µM
CSc1nsc(-c2ccc(C(F)(F)F)cc2)c1C#N | Edmonston | HEP-2 | plaque count | >14 µM
Nc1ncnc2c1ncn2[C@@H]1C[C@H](S)[C@@H](O)[C@H]1O | - | CV-1 | cytopathic effect | >100 µg/mL
O=C(O)c1cn(/N=C/C=C/c2ccc([N+](=O)[O-])cc2)c(=O)c2ccccc12 | Edmonston | HEP-2/L-929/VERO | plaque count | 25 µM
C[C@@]1(O)[C@H](O)[C@@H](COP(=O)(O)OP(=O)(O)OP(=O)(O)O)O[C@H]1n1ccc2c(N)ncnc21 | - | CV-1 | neutral red | >320 µM
O=C(O)c1cn(/N=C/c2ccc(O)cc2)c(=O)c2ccccc12 | Edmonston | HEP-2/L-929/VERO | plaque count | >300 µM
COc1cc(/C=N/N=C(/N)NO)cc(OC)c1OC.Cc1ccc(S(=O)(=O)O)cc1 | - | VERO | plaque count | 1.5 µM
Nc1ncnc2c1ncn2[C@@H]1CC[C@@H](O)[C@H]1O | X-1108 | CV-1 | neutral red | >10 µg/mL
O=C(O)c1cn(/N=C/c2ccc([N+](=O)[O-])cc2)c(=O)c2ccccc12 | Edmonston | HEP-2/L-929/VERO | plaque count | 42 µM
CCOC(=O)c1cc(C#N)c2[nH]c3ccccc3n2c1=O | Sugiyama | VERO | plaque count | 100 µg/mL
Cc1nsc(C)c1C#N | Edmonston | HEP-2 | plaque count | >1000 µM
CSc1nsc(-c2ccc(OCCCOc3ccc([N+](=O)[O-])cc3)cc2)c1C#N | - | HEP-2/L-929/VERO | plaque count | >0.5 µM
Nc1ccn([C@@H]2C[C@H](CO)[C@@H](O)[C@H]2O)c(=O)n1 | SSPE Niigata-1 | VERO | cytopathic effect | 0.9 µg/mL
COc1ccc(/C=N/n2cc(C(=O)O)c3ccccc3c2=O)cc1 | Edmonston | HEP-2/L-929/VERO | plaque count | >500 µM
CSc1nsc(-c2cccnc2)c1C#N | Edmonston | HEP-2 | plaque count | >20 µM
CN(C)C(=O)COC(=O)Cc1ccc(OC(=O)c2ccc(N=C(N)N)cc2)cc1.COS(=O)(=O)O | Sugiyama | VERO | cytopathic effect | >500 µg/mL
CN(C)c1ccc(/C=C/C=N/n2cc(C(=O)O)c3ccccc3c2=O)cc1 | Edmonston | HEP-2/L-929/VERO | plaque count | >150 µM
CSc1nsc(-c2ccc(OCCCc3ccccc3)cc2)c1C#N | - | HEP-2/L-929/VERO | plaque count | 10 µM
Nc1nc(=O)c2ncn([C@@H]3O[C@H](CO)[C@@H](O)[C@H]3O)c2c(=O)[nH]1 | - | CV-1 | cytopathic effect | >100 µM
O=C(O)c1cn(/N=C/c2ccc(Cl)cc2)c(=O)c2ccccc12 | Edmonston | HEP-2/L-929/VERO | plaque count | 25 µM
Nc1ncnc2c1ncn2[C@@H]1C=C[C@@H](O)[C@H]1O | X-1108 | CV-1 | neutral red | >100 µg/mL
CSc1nsc(-c2ccc[n+](C)c2)c1C#N | Edmonston | HEP-2 | plaque count | >1250 µM
N=C(N)c1ncn([C@@H]2O[C@H](CO)[C@@H](O)[C@H]2O)n1 | - | - | - | 1–100 µM

For reference, 3 entries again:

smiles | strain or isolate | cells | read by | result
Nc1ccn([C@@H]2C[C@H](CO)[C@@H](O)[C@H]2O)c(=O)n1 | SSPE Niigata-1 | VERO | cytopathic effect | 0.9 µg/mL
COc1ccc(/C=N/n2cc(C(=O)O)c3ccccc3c2=O)cc1 | Edmonston | HEP-2/L-929/VERO | plaque count | >500 µM
CSc1nsc(-c2ccc(OCCCOc3ccccc3)cc2)c1C#N | - | HEP-2/L-929/VERO | plaque count | 5 µM

Neighbouring rows are from separate reports. An empty or dashed field is not shown. a–b is a range or a potency band.